Target: Staphylococcus aureus ribosomal protein L27 with C-terminal Myc and His6 tags, Q2FXT0

B1: Staphylococcus aureus Prp N46A, untagged (protein)
chain: MITVDITVNDEGKVTDVIMDGHADHGEYGHDIVCAGASAVLFGSVAAIIGLTSERPDINYDDNGGHFHIRSVDTNNDEAQLILQTMLVSLQTIEEEYNENIRLNYK
cleavage of substrate: This Prp single mutant could still cleave its substrate

Source: US20170049848, “Target for Firmicutes and Related Bacteria: The PRP Protease” (published 2017)
